Construct, isoform or probe ends are uncertain for at least one entry. At least one verdict was read from the data and is not stated in words by the source. For part of these data: Protein sequences can lack the tags named with them.

Data set [1] concerns the target mLANA DBD (mLANA124-314) (Murine gammaherpesvirus 68 (MHV68)) (UniProt O41974). Description: EMSA. The settings on record: 1 uM DNA; IVT EMSA: 20 mM Tris pH 7.5, 10% glycerol, 50 mM KCl, 0.1 mM DTT, 10 mM MgCl2, 1 mM EDTA, 20 ug/ml poly(dI-dC), 30 min on ice; recombinant protein; label: 5' fluorescein on strand 1. A general note: Mobility shift assays separate free from complexed probe on a gel.

Data set [2] concerns the target T1, kLANA DBD (kLANA1008-1150) (Kaposi's sarcoma-associated herpesvirus (KSHV)) (UniProt Q9QR71).
T1 sequence (looked up, limits assumed): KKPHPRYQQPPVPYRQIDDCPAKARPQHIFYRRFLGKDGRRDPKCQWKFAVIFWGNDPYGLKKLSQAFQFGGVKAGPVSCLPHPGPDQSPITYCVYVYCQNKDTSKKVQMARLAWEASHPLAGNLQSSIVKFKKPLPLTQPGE
The data set is described as follows: EMSA. The settings on record: 1 uM DNA; IVT EMSA: 20 mM Tris pH 7.5, 10% glycerol, 50 mM KCl, 0.1 mM DTT, 10 mM MgCl2, 1 mM EDTA, 20 ug/ml poly(dI-dC), 30 min on ice; recombinant protein; label: 5' fluorescein on strand 1.

With “TTTGACGCCGCCGGGGCCTGCGGCGCCTCCCGCCCGGGCATGGGGCCGC / GCGGCCCCATGCCCGGGCGGGAGGCGCCGCAGGCCCCGGCGGCGTC [Flc-kLBS1-2]”, the binding result in data set [1] and in data set [2] was “binds” throughout.
Consider “TTTCCCGCGCCTGGGGCGCCACGCGGCGCGCCCTGGAGACCCGGG / CCCGGGTCTCCAGGGCGCGCCGCGTGGCGCCCCAGGCGCGGG [Flc-mLBS1-2]”, for which the binding result in data set [1] was “binds”.

These data come from PMC5599060.
